According to PubChem BioAssay AID687043 (Milwaukee Institute for Drug Discovery, 2013):
The list shows a part of the results, in another mix than the full data. Calls of active or inactive are those of the source.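 The calls were made as follows: active = inhibition above the average over every tested compound plus 3 SD (cut at about 40% in these data); inactive = the rest.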

Test system: Hepatitis C virus NS3 helicase
Experiment: compounds blocking NS3h DNA binding – biochemical, fluorescence polarization, ChemBridge library, primary screen (AID 687043)
Details: NS3h Cy5-dT15 DNA binding, at 100 µM, stronger effect = higher value

| Structure (SMILES) | inhibition |
| --- | --- |
| O=C(CF)NC(Sc1ccc(Cl)cc1)C(Cl)(Cl)Cl (centres undefined) | inactive: 6.3% |
| Cc1ccc(SC(NC(=O)c2ccccc2)C(Cl)Cl)cc1 (centres undefined) | inactive: 16.1% |
| CCCCSP(=O)(OCC(C)C)OCC(C)C | inactive: 15.1% |
| COC(=O)NC(Sc1ccc(Cl)cc1)C(Cl)Cl (centres undefined) | inactive: 16.1% |
